The IC50 is the concentration that inhibits the measured activity by half. Low readings indicate inhibition by little substance, high ones a need for much substance.

The experiment has as its target SARS-CoV 3CL^pro (Severe acute respiratory syndrome coronavirus, UniProt P0C6X7). Format: biochemical. To be noted: pH 7.5.

The structures appear in SMILES notation.

`O=c1c(O[C@@H]2O[C@H](CO)[C@H](O)[C@H](O)[C@H]2O)c(-c2ccc(O)c(O)c2)oc2cc(O)cc(O)c12` [Quercetin-β-galactoside, quercetin-β-galactoside, reference compound] yielded an IC50 of 129 ± 4.5 µM.

For the origin of these results see article PMC6010046, “Evaluation of polyphenols from Broussonetia papyrifera as coronavirus protease inhibitors” (Journal of Enzyme Inhibition and Medicinal Chemistry, 2017).
